These compounds were tested against Lethal factor (Bacillus anthracis, UniProt P15917) (assay: Inhibition of Bacillus anthracis lethal factor assessed as proteolysis using MCA-KKVYPYPME-Dap(Dnp)-NH2 peptide substrate after 4 hrs by FRET assay).

Amino acid sequences for entries named in this document (tags omitted). Residues count along the entry.
UniProt P15917, 34-809 limits assumed: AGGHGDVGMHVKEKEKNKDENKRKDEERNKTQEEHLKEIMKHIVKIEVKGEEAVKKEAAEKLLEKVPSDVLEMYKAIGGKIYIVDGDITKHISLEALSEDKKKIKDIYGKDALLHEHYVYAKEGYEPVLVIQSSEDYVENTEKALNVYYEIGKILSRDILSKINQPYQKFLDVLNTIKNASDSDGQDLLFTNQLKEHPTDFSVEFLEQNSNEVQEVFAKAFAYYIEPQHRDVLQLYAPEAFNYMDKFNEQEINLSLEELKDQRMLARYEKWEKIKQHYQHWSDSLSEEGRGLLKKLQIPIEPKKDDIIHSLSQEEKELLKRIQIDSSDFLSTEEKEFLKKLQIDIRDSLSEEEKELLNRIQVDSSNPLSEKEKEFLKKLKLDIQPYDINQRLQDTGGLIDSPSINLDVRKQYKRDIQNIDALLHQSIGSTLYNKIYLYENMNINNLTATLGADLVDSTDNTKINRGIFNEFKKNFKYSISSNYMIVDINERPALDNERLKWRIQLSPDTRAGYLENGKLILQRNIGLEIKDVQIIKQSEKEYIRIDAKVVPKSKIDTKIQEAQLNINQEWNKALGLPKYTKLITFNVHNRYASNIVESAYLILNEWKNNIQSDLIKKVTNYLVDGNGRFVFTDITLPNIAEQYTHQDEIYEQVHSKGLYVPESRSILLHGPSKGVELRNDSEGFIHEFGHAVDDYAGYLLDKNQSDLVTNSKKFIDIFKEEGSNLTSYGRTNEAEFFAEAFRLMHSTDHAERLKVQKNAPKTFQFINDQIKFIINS

SMILES	Ki [nM]
Cc1cc(O[C@H](CCCCNCc2ccc(Cl)cc2)C(=O)NO)ccc1F	0.75
Cc1cc(O[C@H](CCCCCNCc2ccc(F)cc2)C(=O)NO)cc(C)c1F	3.1
CO[C@H](C[C@H](CCCCNCc1ccc(Cl)cc1)C(=O)NO)c1ccc(F)cc1	1.2
Cc1cc(CNCCCC[C@@H](Oc2ccc(F)c(C)c2)C(=O)NO)ccc1F	3
Cc1cc(N[C@H](CCCCNCc2ccc(Cl)cc2)C(=O)NO)ccc1F	0.68
O=C(NO)[C@@H](CCCCNCc1ccc(F)cc1)Nc1ccc(F)c(Cl)c1	3.8
CO[C@H](C[C@H](CCCCNCc1ccc(F)cc1)C(=O)NO)c1ccc(F)c(C)c1	0.93
Cc1cc(C[C@H](CCCCNCc2ccc(F)cc2)C(=O)NO)ccc1F	0.25
Cc1cc(C[C@H](CCCCNCc2ccc(Cl)cc2)C(=O)NO)ccc1F	0.36
Cc1cc(COCCCC[C@@H](Cc2cc(C)c(F)c(C)c2)C(=O)NO)ccc1F	25
Cc1cc(C[C@H](CCCCNCc2ccc(Cl)cc2)C(=O)NO)cc(C)c1F	0.71
Cc1cc(CNCCCC[C@@H](Oc2cc(C)c(F)c(C)c2)C(=O)NO)ccc1F	2.4
Cc1cc(C[C@H](CCCCNCCc2ccc(F)cc2)C(=O)NO)cc(C)c1F	9.5
Cc1cc(O[C@H](CCCCNCc2ccc(F)cc2)C(=O)NO)ccc1F	1.1
CO[C@H](C[C@H](CCCCNCc1ccc(Cl)cc1)C(=O)NO)c1ccc(F)c(C)c1	1.4
CO[C@H](C[C@H](CCCCNCc1ccc(F)c(C)c1)C(=O)NO)c1ccc(F)c(C)c1	1.3

SMILES	Ki [nM]
Cc1cc(N[C@H](CCCCNCCCc2ccc(F)cc2)C(=O)NO)cc(C)c1F	2.2
Cc1cc(CNCCCC[C@@H](Nc2ccc(F)c(C)c2)C(=O)NO)ccc1F	0.62
Cc1cc(O[C@H](CCCCNCCc2ccc(F)cc2)C(=O)NO)cc(C)c1F	4.6
Cc1cc(O[C@H](CCCCNCc2ccc(Cl)cc2)C(=O)NO)cc(C)c1F	2
Cc1cc(N[C@H](CCCCNCc2ccc(F)cc2)C(=O)NO)ccc1F	0.81
Cc1cc(CNCCCC[C@@H](Cc2ccc(F)c(C)c2)C(=O)NO)ccc1F	1.2
Cc1cc(CCCCCC[C@@H](Cc2cc(C)c(F)c(C)c2)C(=O)NO)ccc1F	577
CO[C@H](C[C@H](CCCCNCCc1ccc(F)cc1)C(=O)NO)c1ccc(F)cc1	1.1
Cc1cc(COCCCC[C@@H](Nc2cc(C)c(F)c(C)c2)C(=O)NO)ccc1F	30.4
CO[C@H](C[C@H](CCCCNCc1ccc(F)c(C)c1)C(=O)NO)c1ccc(F)cc1	1.5
CO[C@H](C[C@H](CCCCCNCCc1ccc(F)cc1)C(=O)NO)c1ccc(F)cc1	5
Cc1cc(N[C@H](CCCCNCc2ccc(Cl)cc2)C(=O)NO)cc(C)c1F	1
Cc1cc(CCCCCC[C@@H](Nc2cc(C)c(F)c(C)c2)C(=O)NO)ccc1F	273
CO[C@H](C[C@H](CCCCCNCc1ccc(F)cc1)C(=O)NO)c1ccc(F)cc1	4.6
Cc1cc(O[C@H](CCCCCNCCc2ccc(F)cc2)C(=O)NO)cc(C)c1F	3.3
Cc1cc(CNCCCC[C@@H](Cc2cc(C)c(F)c(C)c2)C(=O)NO)ccc1F	0.39
